In ChEMBL document CHEMBL1212713, “Molecular docking and ligand specificity in fragment-based inhibitor discovery” (Nat Chem Biol, 2009):
The source made the active and inactive calls. How the calls were made is not given here.

Test: Inhibition of beta lactamase CTX-M assessed as hydrolysis of beta lactam up to 5 mM by spectrometry analysis

Structure (SMILES): CC(C)OP(=O)(NCCC(=O)O)OC(C)C
- inhibition: inactive
